Measured values from several laboratories, pooled; numbers as filed in NIAID ChemDB.

Shared fields: cytotoxicity tests; cells: Huh7; measure: CC50

Two numbers with a dash give a range or band. An empty or dashed field is not shown. Rows are shuffled and stem from different studies. CCn: concentration that lowers growth or viability of the cells by n%.

| compound | method | value |
|---|---|---|
| NC(=O)[C@@H]1O[C@@H]1C(=O)Nc1ccccc1 | MTT | >100 µM |
| Nc1nc(N2CCOCC2)c2nc(-c3ccsc3)cnc2n1 |  | >20 µM |
| COc1cc(Cc2cnc(/N=C3\C(=O)N(CN4CCN(Cc5ccccc5)CC4)c4ccc(Br)cc43)nc2N)cc(OC)c1OC |  | >50 µg/mL |
| N#CCn1c(=O)c2nnn3c2n(c1=O)C1O[C@H](C3)[C@@H](O)[C@H]1O |  | >100 µM |
| COc1ccc(C/C(N)=N/OC(=O)C(c2ccccc2)c2ccccc2)cc1OC | MTS | >100 µM |
| COCCNc1nc(N)nc2ccc(-c3ccc(NC(=O)C(C)C)cc3)nc12 |  | 10–20 µM |
| CCCCCCCC(=O)CCCCCC/C=C/[C@H](C(=O)N[C@@H](Cc1ccc(OCCC(C)C)cc1)C(=O)O)[C@@](O)(CC(=O)O)C(=O)O |  | >1 µM |
| COC(=O)N[C@H](C(=O)N1CCCC1c1ncc(-c2ccc(-c3ccc(-c4cnc([C@@H]5CC(C)CN5C(=O)[C@@H](NC(=O)CO)C(C)C)[nH]4)cc3)cc2)[nH]1)C(C)C | ATP | 38 µM |
| CCC[C@H](NC(=O)[C@@H]1C2CCCC2CN1C(=O)[C@@H](NC(=O)[C@@H](NC(=O)c1cnccn1)C(C)CC)C(C)(C)C)C(=O)C(=O)NC1CC1 |  | >100 µM |
| NC(=O)[C@@H]1O[C@@H]1C(=O)Nc1ccc(Oc2ccc([N+](=O)[O-])cc2)cc1 | MTT | 62 µM |
| CC(=O)Nc1ccc(-c2ccc3nc(N)nc(N4CCN(C)CC4)c3c2)cc1 |  | 10–20 µM |
| CC(C)Oc1nc(N)nc2ncc(-c3ccc(F)cc3)nc12 |  | >20 µM |
| O=c1ccc2nnn3c2n1[C@@H]1O[C@H](C3)[C@@H](O)[C@H]1O |  | 30.6 µM |
| Nc1ncnc2c1c(-c1ccc(-c3cccc(-c4ccccn4)n3)cc1)cn2[C@H]1C[C@H](O)[C@@H](CO)O1 |  | >100 µM |
| CCOc1cccc(-c2cnc3nc(N)nc(N4CCOCC4)c3n2)c1 |  | 10–20 µM |
| CCCCNc1nc(=O)n2c3c1nnn3C[C@H]1OC2[C@H](O)[C@@H]1O |  | >100 µM |
| CCC[C@H](NC(=O)[C@@H]1C2CCCC2CN1C(=O)[C@@H](NC(=O)[C@@H](NC(=O)c1cnccn1)C1CCCCC1)C(C)(C)C)C(=O)C(=O)N[C@@H](C)C(C)C |  | 44.3 µM |
| COc1cc(Cc2cnc(/N=C3\C(=O)N(CN(C)C)c4ccc(F)cc43)nc2N)cc(OC)c1OC |  | <50 µg/mL |
| C#CCOc1ccc(C[C@H](NC(=O)[C@@H](/C=C/CCCCCCC(=O)CCCCCCC)[C@@](O)(CC(=O)O)C(=O)O)C(=O)O)cc1 |  | >5 µM |
| COc1cc(Cc2cnc(/N=C3\C(=O)N(CN4CCN(c5ccccc5)CC4)c4ccc(F)cc43)nc2N)cc(OC)c1OC |  | <50 µg/mL |
| COc1ccc(Sc2ccc(C)cc2Nc2ncnc3nc(C(C)C)ccc23)cc1 | MTT | 8.8 µM |
| N/C(Cc1cccc2ccccc12)=N\OC(=O)N1CCOCC1 | MTS | 45.2 µM |
| NC(=O)[C@@H]1O[C@@H]1C(=O)Nc1cccc(Oc2ccccc2)c1 | MTT | 42 µM |
| Nc1nc(C2CC2)c2nc(-c3ccc(N4CCCC4=O)cc3)ccc2n1 |  | 10–20 µM |
| CCCCCCCCCCOC(=O)/C=C/c1ccc(O)c(O)c1 | MTS | 57.9 µM |
| CCCCCCCC(=O)CCCCCC/C=C/[C@H](C(=O)N[C@@H](Cc1ccc(CNC(=O)OC2c3ccccc3-c3ccccc32)cc1)C(=O)O)[C@@](O)(CC(=O)O)C(=O)O |  | >1 µM |
| Nc1nc(N2CCOCC2)c2cc(-c3ccc(Cl)cc3)ccc2n1 |  | 10–20 µM |
| O=C(NCc1ccc(Cl)c(Cl)c1)c1nc2ccccc2c(=O)n1O | MTT | 202.1 µM |
| CCOc1nc(N)nc2ccc(-c3ccc(C(=O)Nc4ccc(F)cc4)cc3)nc12 |  | >20 µM |
| N/C(=N\OC(=O)N1CCOCC1)c1ccc([N+](=O)[O-])cc1 | MTS | >100 µM |
| Nc1ncnc2c1ncn2[C@@H]1O[C@H](CO)[C@@H](F)[C@@H]1F |  | >10 µM |
| COc1cc(Cc2cnc(/N=C3\C(=O)N(CN4CCN(c5ccccn5)CC4)c4ccc(Br)cc43)nc2N)cc(OC)c1OC |  | >50 µg/mL |
| CC(C)Oc1nc(N)nc2ccc(-c3ccc(C(=O)NC4CCCCC4)cc3)nc12 |  | >20 µM |
| O=C(O[C@@H]1Cc2c(O)cc(O)cc2O[C@@H]1c1cc(O)c(O)c(O)c1)c1ccccc1 | MTS | >1000 µM |
| CC(C)c1nc(N)nc2ccc(-c3ccc(F)cc3)nc12 |  | >20 µM |
| COc1cccc(N2CCN(CN3C(=O)/C(=N\c4ncc(Cc5cc(OC)c(OC)c(OC)c5)c(N)n4)c4cc(Br)ccc43)CC2)c1 |  | >50 µg/mL |
| CCCCOC(=O)/C=C/c1ccc(O)c(O)c1 | MTS | 39 µM |
| CCC[C@H](NC(=O)[C@@H]1C2CCCC2CN1C(=O)[C@@H](NC(=O)[C@@H](NC(=O)c1cnccn1)C1CCCCC1)C(C)(C)C)C(=O)C(=O)N[C@@H](C)c1ccncc1 |  | 73.6 µM |
| CCc1nc(N)nc2ccc(-c3ccc(F)cc3)nc12 |  | <10 µM |
| COc1ccc(-c2cnc3nc(N)nc(N4CCN(CCOc5ccccc5)CC4)c3n2)cc1OC | ATP | >20 µM |
| CCOc1nc(N)nc2ccc(-c3ccc(NC(=O)[C@H](C)N)cc3)nc12 |  | >20 µM |
| CCn1cc(C(=O)O)c(=O)c2cc(F)c(N3CCN(CN4C(=O)/C(=N\c5ncc(Cc6cc(OC)c(OC)c(OC)c6)c(N)n5)c5cc(Br)ccc54)C(C)C3)c(F)c21 |  | >50 µg/mL |
| Cc1ccc(Sc2ccccc2)c(Nc2ncnc3nc(CC(C)C)ccc23)c1 | MTT | 7.5 µM |
| COc1cc(Cc2cnc(/N=C3\C(=O)N(CN4CCOCC4)c4ccc(Br)cc43)nc2N)cc(OC)c1OC |  | >50 µg/mL |
| COc1ccc(-c2cnc3nc(N)nc(N4CCN(C(=O)Nc5ccc(F)cc5)CC4)c3n2)cc1OC | ATP | <10 µM |
| CCOc1ncc2c(Nc3cc(C)ccc3Sc3ccc(O)cc3)ncnc2n1 | MTT | 29.7 µM |
| O=C(NCc1ccccc1Cl)c1nc2ccccc2c(=O)n1O | MTT | 224.8 µM |
| CCN(CC)CN1C(=O)/C(=N\c2ncc(Cc3cc(OC)c(OC)c(OC)c3)c(N)n2)c2cc(Br)ccc21 |  | >50 µg/mL |
| Nc1nc(CCC2OCCCO2)c2nc(-c3ccc(F)cc3)ccc2n1 |  | >20 µM |
| CCCCCCCC(=O)CCCCCC/C=C/[C@H](C(=O)N[C@@H](Cc1ccc(Oc2ccccc2F)cc1)C(=O)O)[C@@](O)(CC(=O)O)C(=O)O |  | >1 µM |
| CCOc1nc(N)nc2ccc(-c3cccc(NS(=O)(=O)C4CCS(=O)(=O)C4)c3)nc12 |  | >20 µM |
| CCCc1nc(N)nc2ccc(-c3ccc(NC(C)=O)cc3)nc12 |  | >20 µM |
| O=C(CCC1CCCC1)N/C(=C\c1ccc(Oc2ccccc2I)cc1)C(=O)O |  | >50 µM |
| CCCC(NC(=O)[C@@H]1C2CCCC2CN1C(=O)[C@@H](NC(=O)[C@@H](NC(=O)c1cnccn1)[C@@H](C)CC)C(C)(C)C)C(=O)C(=O)NC1CC1 |  | >100 µM |
| COc1ccc2c(c1)[C@@H]1C[C@]1(C(=O)N1[C@@H]3CC[C@H]1CN(C)C3)Cn1c-2c(C2CCCCC2)c2ccc(C(=O)NS(=O)(=O)N(C)C)cc21 | resazurin | 26 µM |
| COCCOc1nc(N)nc2ccc(-c3ccc(C(=O)NOC)cc3)nc12 |  | >20 µM |
| N/C(=N\OC(=O)N1CCOCC1)c1c(Cl)cccc1Cl | MTS | >100 µM |
| Nc1ncnc2ccc(-c3ccc(F)cc3)cc12 |  | >20 µM |
| COc1cc(Cc2cnc(/N=C3\C(=O)N(CN4CCN(Cc5ccccc5)CC4)c4ccc(F)cc43)nc2N)cc(OC)c1OC |  | <50 µg/mL |
| COc1cc(Cc2cnc(/N=C3\C(=O)N(CN4CCN(c5cccc(Cl)c5)CC4)c4ccc(Br)cc43)nc2N)cc(OC)c1OC |  | >50 µg/mL |
| COC(=O)Nc1ccc(-c2cnc3nc(N)nc(N4CCOCC4)c3n2)cc1 |  | <10 µM |
| COc1cc(Cc2cnc(/N=C3\C(=O)N(CN4CCN(c5cccc(C(F)(F)F)c5)CC4)c4ccc(F)cc43)nc2N)cc(OC)c1OC |  | <50 µg/mL |
| Nc1nc(Cl)nc2c1ncn2[C@@H]1O[C@H](CO)[C@@H](F)[C@@H]1F |  | >10 µM |
| CCC[C@H](NC(=O)[C@@H]1C2CCCC2CN1C(=O)[C@@H](NC(=O)[C@@H](NC(=O)c1cnccn1)C(C)(C)C)C(C)(C)C)C(=O)C(=O)NC1CC1 |  | >100 µM |
| COc1ccc(CNC(=O)c2nc3ccccc3c(=O)n2O)cc1 | MTT | 175 µM |
| CCOc1nc(N)nc2ncc(-c3ccc(F)cc3)nc12 | ATP | >20 µM |
| COc1cc(Cc2cnc(/N=C3\C(=O)N(CN4CCC(C)CC4)c4ccc(F)cc43)nc2N)cc(OC)c1OC |  | <50 µg/mL |
| CCc1nc(N)nc2ccc(-c3ccc(N4CCCC4=O)cc3)nc12 |  | >20 µM |
| O=C(NCCCc1ccccc1)c1nc2ccccc2c(=O)n1O | MTT | 187.5 µM |
| N/C(Cc1ccc([N+](=O)[O-])cc1)=N\OC(=O)N1CCOCC1 | MTS | 94.6 µM |
| O=C(O)C(=O)CC(=O)c1ccccc1 | MTT | 186.8 µM |
| COc1ccc(-c2cnc3nc(N)nc(N4CCN(CC(=O)N5CCOCC5)CC4)c3n2)cc1OC | ATP | >20 µM |
| N/C(=N\OC(=O)N1CCOCC1)c1cccc(C(F)(F)F)c1 | MTS | 55.1 µM |
| Nc1nc(N2CCOCC2)c2cc(-c3ccc(F)cc3)ccc2n1 |  | <10 µM |
| C[C@@]1(O)[C@H](O)[C@@H](CO)O[C@H]1n1cnc2c(N)ncnc21 |  | 82 µM |
| Nc1ncnc2c1ncn2[C@@H]1C[C@H](CO)[C@@H](O)C12CC2 | XTT | >50 µM |
| CCOc1nc(N)nc2ccc(-c3ccc(C(=O)NC4CC4)c(Cl)c3)nc12 |  | >20 µM |
| CCC[C@H](NC(=O)[C@@H]1[C@H]2CCC[C@H]2CN1C(=O)[C@@H](NC(=O)[C@@H](NC(=O)c1cnccn1)C1CCCCC1)C(C)(C)C)C(=O)C(=O)NC1CC1 |  | 86.5 µM |
| CNc1nc(=O)n2c3c1nnn3C[C@H]1OC2[C@H](O)[C@@H]1O |  | 6.7 µM |
| Nc1ccn([C@@H]2C[C@H](CO)[C@@H](CO)C23CC3)c(=O)n1 | XTT | >50 µM |
| Nc1ccc(CNC(=O)c2nc3ccccc3c(=O)n2O)cc1 | MTT | >250 µM |
| O=C(NCc1ccc(N2CCNC2=O)cc1)Nc1nc2c(s1)-c1c(cnn1-c1ccccc1C(F)(F)F)C2 |  | 1 µM |
| CCOc1nc(N)nc2ccc(-c3cccc(NS(=O)(=O)c4ccc(C)cc4)c3)nc12 |  | >20 µM |
| C[C@H](NP(=O)(OC[C@H]1O[C@@H](n2cnc3c(NCc4ccccc4)nc(N)nc32)[C@](C)(O)[C@@H]1O)Oc1cccc2ccccc12)C(=O)OCC(C)(C)C |  | 42 µM |
| Nc1ncnc2c1ncn2[C@@H]1C[C@H](CO)[C@@H](O)[C@]1(O)CO |  | 24.7 µg/mL |
| NC(=O)[C@@H]1O[C@@H]1C(=O)Nc1cccc(Cl)c1 | MTT | >100 µM |
| COc1ccc(-c2ccc3nc(N)nc(Nc4cccc(Br)c4)c3c2)cc1OC |  | >20 µM |
| Cc1ccc(Sc2ccccc2)c(Nc2cccc3nc(C)ccc23)c1 | MTT | 15.9 µM |
| COc1cc(Cc2cnc(/N=C3\C(=O)N(CN4CCN(C)CC4)c4ccc(Br)cc43)nc2N)cc(OC)c1OC |  | >50 µg/mL |
| Cc1ccc(NC(=O)[C@H]2O[C@H]2C(N)=O)cc1C | MTT | >100 µM |

A second listing of 11 rows from above:

{"compound": "Nc1nc(N2CCOCC2)c2nc(-c3ccsc3)cnc2n1", "value": ">20 µM"}
{"compound": "O=C(NCc1ccc(Cl)c(Cl)c1)c1nc2ccccc2c(=O)n1O", "method": "MTT", "value": "202.1 µM"}
{"compound": "COc1cccc(N2CCN(CN3C(=O)/C(=N\\c4ncc(Cc5cc(OC)c(OC)c(OC)c5)c(N)n4)c4cc(Br)ccc43)CC2)c1", "value": ">50 µg/mL"}
{"compound": "CCC[C@H](NC(=O)[C@@H]1C2CCCC2CN1C(=O)[C@@H](NC(=O)[C@@H](NC(=O)c1cnccn1)C1CCCCC1)C(C)(C)C)C(=O)C(=O)N[C@@H](C)c1ccncc1", "value": "73.6 µM"}
{"compound": "COc1cc(Cc2cnc(/N=C3\\C(=O)N(CN4CCN(Cc5ccccc5)CC4)c4ccc(F)cc43)nc2N)cc(OC)c1OC", "value": "<50 µg/mL"}
{"compound": "NC(=O)[C@@H]1O[C@@H]1C(=O)Nc1cccc(Cl)c1", "method": "MTT", "value": ">100 µM"}
{"compound": "Cc1ccc(Sc2ccccc2)c(Nc2cccc3nc(C)ccc23)c1", "method": "MTT", "value": "15.9 µM"}
{"compound": "O=C(O)C(=O)CC(=O)c1ccccc1", "method": "MTT", "value": "186.8 µM"}
{"compound": "CC(C)Oc1nc(N)nc2ncc(-c3ccc(F)cc3)nc12", "value": ">20 µM"}
{"compound": "Nc1ncnc2ccc(-c3ccc(F)cc3)cc12", "value": ">20 µM"}
{"compound": "CCC[C@H](NC(=O)[C@@H]1C2CCCC2CN1C(=O)[C@@H](NC(=O)[C@@H](NC(=O)c1cnccn1)C(C)CC)C(C)(C)C)C(=O)C(=O)NC1CC1", "value": ">100 µM"}